Measured values from several laboratories, pooled; numbers as filed in NIAID ChemDB.

Common to all: host cell toxicity; cell line: HUMAN SPERM; endpoint: CC50

CCn is the concentration with n% toxicity to the cells.

compound | result
COC(=O)[C@@H]1CCCN1P(=O)(OC[C@H]1O[C@@H](N2C(=O)NC(=O)C(C)(Br)C2OC)C[C@@H]1N=[N+]=[N-])Oc1ccc(Br)cc1 | >300 µM
COC(=O)[C@H](C)NP(=O)(OC[C@H]1O[C@@H](N2C(=O)NC(=O)C(C)(Br)C2OC)C[C@@H]1N=[N+]=[N-])Oc1ccc(F)cc1 | 15 µM
S=C(NCCC1=CCCCC1)Nc1ccc(Br)cn1 | 42 µM
COC(=O)[C@H](C)NP(=O)(OC[C@H]1O[C@@H](N2C(=O)NC(=O)C(C)(Br)C2OC)C[C@@H]1N=[N+]=[N-])Oc1ccccc1 | >35 µM
S=C(NCCc1ccccc1Cl)Nc1ccc(Br)cn1 | 70 µM
COC(=O)[C@H](C)NP(=O)(OC[C@H]1O[C@@H](N2C(=O)NC(=O)C(C)(Br)C2OC)C[C@@H]1N=[N+]=[N-])Oc1ccc(Br)cc1 | 6 µM
COC(=O)[C@H](C)NP(=O)(OC[C@H]1O[C@@H](N2C(=O)NC(=O)C(C)(Br)C2OC)C[C@@H]1N=[N+]=[N-])Oc1ccc(Br)cc1 | 4.82 µM
S=C(NCCc1ccc(Br)cc1)Nc1ccc(Br)cn1 | >500 µM
S=C(NCCC1=CCCCC1)Nc1ccc(Cl)cn1 | 57 µM
S=C(NCCN1CCCC1)Nc1ccc(Br)cn1 | >500 µM
COC(=O)[C@H](C)NP(=O)(OC[C@H]1O[C@@H](n2cc(C)c(=O)[nH]c2=O)C[C@@H]1N=[N+]=[N-])Oc1ccc(OC)cc1 | >300 µM
S=C(NCCN1CCNCC1)Nc1ccc(Br)cn1 | >500 µM
COC(=O)[C@H](C)NP(=O)(OC[C@H]1O[C@@H](n2cc(C)c(=O)[nH]c2=O)C[C@@H]1N=[N+]=[N-])Oc1ccc(Br)cc1 | 300 µM
Fc1ccccc1CCNC(=S)Nc1ccc(Br)cn1 | 147 µM
COC(=O)[C@H](Cc1ccccc1)NP(=O)(OC[C@H]1O[C@@H](N2C(=O)NC(=O)C(C)(Br)C2OC)C[C@@H]1N=[N+]=[N-])Oc1ccccc1 | >300 µM
COC(=O)[C@H](C)NP(=O)(OC[C@@H]1CC[C@H](N2C(=O)NC(=O)C(C)(Br)C2OC)O1)Oc1ccc(Br)cc1 | 58 µM
COc1ccc(OC)c(CCNC(=S)Nc2ccc(Br)cn2)c1 | >500 µM
COC(=O)[C@H](C)NP(=O)(OC[C@H]1O[C@@H](N2C(=O)NC(=O)C(C)(Br)C2OC)C[C@@H]1N=[N+]=[N-])Oc1ccccc1 | 35 µM
CCCCCCCCCc1ccc(OCCOCCOCCOCCOCCOCCOCCOCCOCCO)cc1 | 76 µM
S=C(NCCN1CCCCC1)Nc1ccc(Br)cn1 | >500 µM
COC(=O)[C@H](CCSC)NP(=O)(OC[C@H]1O[C@@H](N2C(=O)NC(=O)C(C)(Br)C2OC)C[C@@H]1N=[N+]=[N-])Oc1ccccc1 | 95 µM
COc1ccc(OC)c(CCNC(=S)Nc2ccc(Br)cn2)c1 | >500 µM

The last 2 rows once more:

{"compound": "COC(=O)[C@H](CCSC)NP(=O)(OC[C@H]1O[C@@H](N2C(=O)NC(=O)C(C)(Br)C2OC)C[C@@H]1N=[N+]=[N-])Oc1ccccc1", "result": "95 µM"}
{"compound": "COc1ccc(OC)c(CCNC(=S)Nc2ccc(Br)cn2)c1", "result": ">500 µM"}

Lines come from different laboratories, so protocols vary.